Reference: article PMC4909229, “Characterization of Staphylococcus aureus Primosomal DnaD Protein: Highly Conserved C-Terminal Region Is Crucial for ssDNA and PriA Helicase Binding but Not for DnaA Protein-Binding and Self-Tetrameri”

Target: T1, SaDnaD (Staphylococcus aureus subsp. aureus ED98) (UniProt Q9EUT0)
T1 sequence (looked up): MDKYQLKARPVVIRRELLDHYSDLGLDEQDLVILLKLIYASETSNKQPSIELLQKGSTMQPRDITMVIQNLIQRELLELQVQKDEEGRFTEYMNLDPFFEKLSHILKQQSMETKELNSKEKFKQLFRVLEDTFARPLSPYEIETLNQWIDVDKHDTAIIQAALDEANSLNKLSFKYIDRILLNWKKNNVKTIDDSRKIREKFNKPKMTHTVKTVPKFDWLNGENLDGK
Test: EMSA
Conditions: no stable complex, smears, [Protein]50 ND (up to 16 uM); EMSA: 20 mM Tris-HCl pH 8.0, 100 mM NaCl, 25 C, 30 min, 1.7 nM DNA, gel at 4 C in TBE; recombinant protein; residues 1-228; protein details: C-terminal His tag (pET21e); label: 5'-32P; single-stranded DNA

TTTTTTTTTTTTTTTTTTTT [dT20]: binds more weakly.

The comparison behind a weaker result is the experiment's own reference, which may not be listed here. Tags and fusion partners may be left off the protein sequences shown.
